According to US10681911B2, “Anthelminthic composition” (AgResearch Limited, priority 2016, dated 2020):
Some compounds may have been tested in ways that are not shown here.

Tested on: Haemonchus contortus L3
Assay: Field study, L3 numbers on pasture and in faeces
Conditions: 250 L/ha on 1 m2 plots

## ammonium nitrate
FIG. 3a
  impact on L3 numbers in faeces: Neither ammonium nitrate nor calcium hydroxide applied alone or in combination had any impact on L3 numbers in faeces
Result in words, FIG. 3b, FIG. 4
  impact on L3 numbers on pasture: neither ammonium nitrate nor calcium hydroxide applied alone had any impact on L3 numbers on pasture
